PubChem BioAssay AID624099 | ICCB-Longwood, 2012
The whole screen tested about 21,000 reagents; below is a random part of them. In the full data, 497 (2.4%) were called active. 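Higher z means weaker E2 silencing; only reporter increases were scored, and knock-downs that hurt cell survival may mask genuine repressor factors.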 A number with no mark means an inactive call.

Aim: 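Host factors E2 relies on to silence an HPV18 LCR reporter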 (primary screen)
Cells: human C33A cervical carcinoma cells (HPV-negative) stably expressing BPV1 E2 and an HPV18 LCR luciferase reporter
Reagents: siRNA pool against human genes, 40 nM
Time to read-out: 72 h
Measured: 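Per-well luciferase luminescence, z-scored on each plate against the plate mean and SD with control wells left out, then averaged across three replicate plates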
Direction: mean z-score and z-score: higher = stronger reporter signal, weaker E2 silencing
Call rule: 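Mean z ≥ 2 together with z ≥ 2 in two or more of the three replicates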

Which result is listed for LRRC41 (GeneID 10489)?
mean z-score: -0.18; z-score, replicate A: -0.08; z-score, replicate B: -0.32; z-score, replicate C: -0.15

For PTPN23 (GeneID 25930), how do the results read?
mean z-score: -1.62; z-score, replicate A: -1.4; z-score, replicate B: -1.54; z-score, replicate C: -1.93

Which result is listed for TYW5 (GeneID 129450)?
mean z-score: 0.55; z-score, replicate A: 0.65; z-score, replicate B: 0.63; z-score, replicate C: 0.38

How did the screen score KCNG3 (GeneID 170850)?
mean z-score: 0.59; z-score, replicate A: 0.75; z-score, replicate B: 0.47; z-score, replicate C: 0.55

For MGAT4C (GeneID 25834), how do the results read?
mean z-score: -0.57; z-score, replicate A: -0.32; z-score, replicate B: -0.46; z-score, replicate C: -0.92

How did the screen score ADCK2 (GeneID 90956)?
mean z-score: -0.07; z-score, replicate A: -0.06; z-score, replicate B: -0.4; z-score, replicate C: 0.23

For MIIP (GeneID 60672), how do the results read?
mean z-score: 0.78; z-score, replicate A: 0.51; z-score, replicate B: 0.84; z-score, replicate C: 1

For TOP3B (GeneID 8940), what was measured?
mean z-score: -1.15; z-score, replicate A: -1.34; z-score, replicate B: -1.03; z-score, replicate C: -1.09

How did the screen score LOC389846 (retired record) (GeneID 389846)?
mean z-score: 0.55; z-score, replicate A: 0.71; z-score, replicate B: 0.23; z-score, replicate C: 0.71

With LOC402620 (retired record) (GeneID 402620), what does the deposit list?
mean z-score: 0.66; z-score, replicate A: 0.66; z-score, replicate B: 0.74; z-score, replicate C: 0.59

With PAPOLG (GeneID 64895), how do the results read?
mean z-score: 0.96; z-score, replicate A: 0.81; z-score, replicate B: 0.85; z-score, replicate C: 1.22

What did the screen give for KDSR (GeneID 2531)?
mean z-score: -0.25; z-score, replicate A: -0.29; z-score, replicate B: -0.25; z-score, replicate C: -0.2

Sorted by “z-score, replicate B” (high to low): some entries from above
LRRC41 (GeneID 10489) — mean z-score: -0.18; z-score, replicate A: -0.08; z-score, replicate B: -0.32; z-score, replicate C: -0.15
PTPN23 (GeneID 25930) — mean z-score: -1.62; z-score, replicate A: -1.4; z-score, replicate B: -1.54; z-score, replicate C: -1.93
